Test results: PubChem BioAssay AID434955 (Southern Research Specialized Biocontainment Screening …, 2010)

The compounds below were run on M. tuberculosis H37Rv growth with meropenem, percent inhibition (assay: beta-lactam sensitization of Mtb H37Rv, H37Rv (AID 434955)).

Row | SMILES | IC90
1 | Nc1ccc([As](=O)(O)c2ccc(N)cc2)cc1 | 63.9 µM
2 | Nc1ccc([As](=O)(O)c2ccc([N+](=O)[O-])cc2)cc1 | 7.99 µM
3 | O=[As](O)(c1ccc(O)cc1)c1ccccc1O | 57.6 µM
